Assay results taken from patent US20240228596A1 (VIB VZW, published 2024).

Target: SARS-COV-2 Wuhan WT Spike_del18 on VSV-delG pseudotyped particles (SARS-COV-2, UniProt P0DTC2 14-1255)
Assay: cell-based or functional assay

B1: pX-B008_GS-VHH3-117-hc_(G4S)6_VHH3-83-hc-N85E_His8 (bispecific antibody)
chain: DVQLVESGGGLVQPGGSLRLSCAASGKAVSISDMGWYRQPPGKQRELVATITKTGSTNYADSAQGRFTISRDNTKSAVYLEMKSLRPEDTAVYYCNAWLPYGMGPDYYGMELWGKGTLVTVSSGGGGSGGGGSGGGGSGGGGSGGGGSGGGGSDVQLQESGGGLVQPGDSLRLSCVLSGGVFTSYAMGWFRQAPGKEREFLAAITFNSDATYYADSVKGRFTISRDNAKNTAYLQMNSLRPEDTAVYSCAAGGNHYNPQYYHDYDKYDHWGQGTLVTVSS
**Q.** B1 was tested. Which “IC50 ug/ml, pseudoneutralization assay” value did it give?
**A.** 0.196 µg/mL

B2: pX-B011_GS-VHH3-117-hc_(G4S)_VHH3-83-hc-N85E_His8 (bispecific antibody)
chain: DVQLVESGGGLVQPGGSLRLSCAASGKAVSISDMGWYRQPPGKQRELVATITKTGSTNYADSAQGRFTISRDNTKSAVYLEMKSLRPEDTAVYYCNAWLPYGMGPDYYGMELWGKGTLVTVSSGGGGSDVQLQESGGGLVQPGDSLRLSCVLSGGVFTSYAMGWFRQAPGKEREFLAAITFNSDATYYADSVKGRFTISRDNAKNTAYLQMNSLRPEDTAVYSCAAGGNHYNPQYYHDYDKYDHWGQGTLVTVSS
**Q.** Which “IC50 ug/ml, pseudoneutralization assay” value does the source give for B2 here?
**A.** 0.609 µg/mL
